Results of unrelated studies side by side (data: NIAID ChemDB).

Common to all: whole-cell or culture tests; organism: Cryptococcus neoformans; endpoint: MIC

Blank or dashed fields: not listed here. Conditions beyond the fields shown may differ between rows.

smiles	strain or isolate	value
Cc1nc(C)c(C(=O)NNC(=S)NC23CC4CC(CC(C4)C2)C3)s1	PLM 589	3.12 µg/mL
O=C1C[C@@H](c2cccc(F)c2)Cc2cc(O)cc(O)c21	Clinical isolate H99	55 µg/mL
CC(=O)OC1C(=O)N2CCCS(=O)(=O)C12c1ccccc1	AH27/A	19.41 µM
COc1ccc(/C=C2\COc3ccc(-c4ccccc4)cc3C2=O)cc1OC	93/V	50 µg/mL
COc1ccc(CS(=O)(=O)C2NN=C(c3sc(C)nc3C)N2C2C3CC4CC(C3)CC2C4)cc1	PLM 589	25 µg/mL
C[C@@H](SC1COC(/C=C/C=C/c2ccc(C#N)cc2F)OC1)[C@](O)(Cn1cncn1)c1ccc(F)cc1F	TIMM1855	≤0.008 µg/mL
Cc1ccc(-c2cc(-c3ccc(Cl)cc3)nc(/N=C3\C(=O)Nc4ccc(Cl)cc43)n2)cc1	-	39.06 µg/mL
CN1C(c2ccccc2)C/C(=N\OCc2ccccc2)C(Cl)C1c1ccccc1	-	50 µg/mL
Cc1ccc(-c2cc(-c3ccc(Cl)cc3)nc(/N=C3\C(=O)N(CN4CCOCC4)c4ccc(Cl)cc43)n2)cc1	-	78.12 µg/mL
O=C1/C(=C/c2ccc(-c3ccccc3)cc2)CSc2ccccc21	25	12.5 µg/mL
CC(C)C(=O)CCC[C@H]1CO[C@@](Cn2cccc2)(c2ccc(F)cc2F)C1	IFM.40092	>100 µg/mL
CC(=O)OC1C(=O)N(c2ccccc2)C1c1ccccc1	AH27/A	178 µM
COc1cc(O)c2c(c1)C(=O)c1c(cc3c(c1O)-c1c(cc(C)c(C(=O)NC(CO)C(=O)O)c1O)[C@H](OC1OC(C)C(N(C)C)C(OC4OCC(O)C(O)C4O)C1O)[C@H]3O)C2=O	IAM 4514	0.8 µg/mL
CSC1NN=C(c2snnc2C)N1c1ccc2ccccc2c1	PLM 589	25 µg/mL
C[C@@H](n1ccn(-c2ccc(C(F)(F)F)cc2)c1=O)C(O)(Cn1cncn1)c1ccc(F)cc1F	TIMM1855	0.06 µg/mL
NC(=NC1CCCC1)c1ccc(-c2ccc(-c3ccc(C(N)=NC4CCCC4)cc3)o2)cc1	H99	0.78 µg/mL
CCCCn1c(-c2sc(C)nc2C)n[nH]c1=S	PLM 589	3.12 µg/mL
C[C@@H](N1CCN(c2ccc(F)cc2)C1=O)C(O)(Cn1cncn1)c1ccc(F)cc1F	TIMM1740	0.13 µg/mL
CCCCCCCCC(OC)C(=O)O	ATCC66031	110 µM
COc1ccc(/C=C2\CSc3ccc(Cl)cc3C2=O)cc1	Farwania	6 µg/mL
NCCNC(=O)C1=Nc2ccc(NC(=O)C3=Nc4ccc(C(=O)Nc5ccc6[nH]c(C(=O)NCCN)cc6c5)cc4C3)cc2C1	Serotype A	8 µg/mL
OC(c1cc(-c2ccc(-c3ccccc3)cc2)nc2ccccc12)C1CCCCN1	ATCC90112	1.5 µg/mL
CN[C@@H]1[C@H](O[C@@H]2O[C@H](CO)[C@@H](O)[C@H](S(=O)(=O)O)[C@H]2O)[C@@H](O)[C@H](O[C@H]2c3cc(C)c(C(=O)N[C@H](C)C(=O)O)c(O)c3-c3c(cc4c(c3O)C(=O)c3cc(OC)cc(O)c3C4=O)[C@@H]2O)O[C@@H]1C	IAM 4514	1.6 µg/mL
CCCCNC(=S)NNC(=O)c1sc(C)nc1C	PLM 589	3.12 µg/mL
O=C1C[C@@H](c2ccc(F)c(Cl)c2)Cc2cc(O)cc(O)c21	Clinical isolate H99	31 µg/mL
Cc1ccc(-c2cc(-c3ccc(Cl)cc3)nc(/N=C3\C(=O)N(CN4CCCCC4)c4ccccc43)n2)cc1	-	19.53 µg/mL
CC(C)C(=O)CCC[C@H]1CO[C@@](Cn2cncn2)(c2ccc(F)cc2F)C1	A.34144	12.5 µg/mL
O=C1/C(=C/c2ccc(Cl)cc2)CSc2ccccc21	25	3 µg/mL
COc1ccc(Cc2nc(N=C3NC(=O)N(C)C3=O)n(C)c2Cc2ccc(OC)cc2)cc1	-	12.5 µg/mL
Clc1ccc(C(Cc2cccc(Cl)c2)c2c(Cl)nc(N3CCNCC3)nc2Cl)cc1	-	150 µg/mL
O=C1/C(=C/c2ccc(O)cc2)CCc2ccccc21	93/V	100 µg/mL
OC(c1cc(C2CC3CCC2CC3)nc2c(Cl)cc(Cl)cc12)C1CCCCN1	ATCC 90013	0.4 µg/mL
COc1ccc(/C=C2\COc3ccc(SC)cc3C2=O)cc1	25	25 µg/mL
C[C@@H](n1ccn(-c2ccc(OC(F)(F)C(F)F)cc2)c1=O)C(O)(Cn1cncn1)c1ccc(F)cc1F	TIMM1855	0.03 µg/mL
CC(C)C(=N)CCC[C@H]1CO[C@@](Cn2cncn2)(c2ccc(F)cc2F)C1	A.34144	100 µg/mL
C[C@@H](n1ccn(-c2ccc(F)cc2)c1=O)C(O)(Cn1cncn1)c1ccc(F)cc1F	TIMM1740	0.25 µg/mL
C=C[C@@H]1C(=C)CC[C@H]2[C@H]1C[C@H]1OC(=O)[C@@]3(C)[C@@H](O)CC[C@@]2(C)[C@@]13O	-	0.25 µg/mL
COc1ccc(Cc2nc(N=C3NC(=O)N(C)C3=O)n(C)c2Cc2ccc(OC)c(O)c2)cc1	-	6.25 µg/mL
O=C1/C(=C/c2ccc(Cl)cc2)CCc2ccccc21	93/V	6 µg/mL
COc1ccc(N2C(=O)C(O)C2c2ccccc2)cc1	AH27/A	11.15 µM
C[C@@H](n1ccn(-c2ccc(OCC(F)(F)C(F)F)cc2)c1=O)C(O)(Cn1cncn1)c1ccc(F)cc1F	TIMM1855	0.13 µg/mL
Cc1ccc(/C=C2\COc3ccccc3C2=O)cc1	Farwania	12.5 µg/mL
CCC(O)/C=C/C=C/C=C/C(=O)OC[C@H]1O[C@@H](O[C@H]2[C@H](OC(=O)/C=C/C=C/CC(O)/C(C)=C/C=C/CCC(C)CC)[C@@H](O)[C@@]3(OCc4cc(O)cc(O)c43)O[C@@H]2CO)[C@H](O)[C@@H](O)[C@H]1O	IAM 4514	>100 µg/mL
C[C@@H](N1CCN(c2ccc(OC(F)(F)C(F)F)cc2)C1=O)C(O)(Cn1cncn1)c1ccc(F)cc1F	TIMM1740	<0.016 µg/mL
CC(C)C(=O)CCC[C@@H]1CO[C@@](Cn2cccc2)(c2ccc(F)cc2F)C1	A.34144	>100 µg/mL
CC(=O)OC1C(=O)N(c2ccccc2)C1c1ccc([N+](=O)[O-])cc1	AH27/A	18.4 µM
C[C@@H](n1cnc2cc(Cl)ccc2c1=O)[C@](O)(Cn1cncn1)c1ccc(F)cc1F	Isolate 163.99	0.024 µg/mL
CCC(C)n1ncn(-c2ccc(N3CCN(c4ccc(OC[C@H]5CO[C@](Cn6cncn6)(c6ccc(Cl)cc6Cl)O5)cc4)CC3)cc2)c1=O	DUMC140.92	0.031 µg/mL
CC(C(O)(Cn1cncn1)c1ccc(F)cc1F)S(C)(=O)=O	R717 (AZOLE-R)	20 µM
O=C1/C(=C/c2ccc3c(c2)OCO3)CCc2ccccc21	Farwania	100 µg/mL
CC(C)C(=N)CCC[C@H]1CO[C@@](Cn2cccc2)(c2ccc(F)cc2F)C1	A.34144	25 µg/mL
Cc1ccc(-c2cc(-c3ccc(Cl)cc3)nc(/N=C3\C(=O)Nc4ccc(Br)cc43)n2)cc1	-	19.53 µg/mL